Compound potency records, mixed from different reports. Data source: NIAID ChemDB in PubChem.

Shared fields: growth or infection tests; agent: HIV-1; cell line: MT-2; endpoint: EC50

Two numbers with a dash give a range or band. Rows are shuffled and stem from different studies. ECn is the concentration giving n% inhibition of infection, replication or growth. Blank or dashed fields: not listed here.

structure	strain or isolate	changes	read by	conditions	result
CC(C)C1=C2[C@H]3CC[C@@H]4[C@@]5(C)CC[C@H](OC(=O)[C@H]6C[C@@H](C(=O)O)C6(C)C)C(C)(C)[C@@H]5CC[C@@]4(C)[C@]3(C)CC[C@@]2(CCNC(=O)c2ccc(OCCN3CCOCC3)cc2)CC1=O	92HT599		p24 / ELISA		<1 µM
CC(C)C1=C2C3CCC4[C@@]5(C)CC[C@H](OC(=O)CC(C)(C)C(=O)O)C(C)(C)C5CC[C@@]4(C)[C@]3(C)CC[C@@]2(NC(=O)NC2CC2)CC1=O	IIIB		RT activity	30% human serum	<0.199 µM
CCOCCCNC(=O)[C@@H](NC(=O)[C@H](Cc1ccc(OC)c(OC)c1OC)C[C@H](O)[C@H](Cc1ccccc1)NC(=O)OC(C)(C)C)C(C)C	MN		RT activity		<0.03 µM
CC(C)C1=C2C3CCC4[C@@]5(C)CC[C@H](OC(=O)CC(C)(C)C(=O)O)C(C)(C)C5CC[C@@]4(C)[C@]3(C)CC[C@@]2(NC(=O)NCC2CCCCC2)CC1=O	IIIB		RT activity	30% human serum	<0.199 µM
CC(C)C1=C2[C@H]3CC[C@@H]4[C@@]5(C)CC[C@H](OC(=O)[C@H]6C[C@@H](C(=O)O)C6(C)C)C(C)(C)[C@@H]5CC[C@@]4(C)[C@]3(C)CC[C@@]2(CCNCC(C)(CCCN)NC(=O)c2ccc(Cl)cc2)CC1=O	92HT599		p24 / ELISA		<1 µM
Cc1ccc(C)n1-c1cccc(O)c1	IIIB		p24		>400 µM
CC(C)C1=C2[C@H]3CC[C@@H]4[C@@]5(C)CC[C@H](OC(=O)[C@H]6C[C@@H](C(=O)O)C6(C)C)C(C)(C)[C@@H]5CC[C@@]4(C)[C@]3(C)CC[C@@]2(CCNC(=O)c2ccc(N3CCC(O)CC3)cc2)CC1=O	92HT599		p24 / ELISA		<1 µM
Cc1c(-c2c([C@H](OC(C)(C)C)C(=O)O)cnc3ccccc23)cc(F)c2c1CCCO2					0.039 µM
COCCNC(=O)[C@@H](NC(=O)[C@H](Cc1cccc(OC)c1)C[C@H](O)[C@H](Cc1ccccc1)NC(=O)OC(C)(C)C)C(C)C	MN		RT activity		<0.03 µM
CC(C)C1=C2C3CCC4[C@@]5(C)CC[C@H](OC(=O)CC(C)(C)C(=O)O)C(C)(C)C5CC[C@@]4(C)[C@]3(C)CC[C@@]2(NC(=O)c2ccncn2)CC1=O	IIIB		RT activity	30% human serum	<0.199 µM
O=C(C(=O)N1CCN(C(=O)c2ccccc2)CC1)c1c[nH]c2cccc(F)c12	LAI				0.00293 µM
CC(C)C1=C2C3CCC4[C@@]5(C)CC[C@H](OC(=O)CC(C)(C)C(=O)O)C(C)(C)C5CC[C@@]4(C)[C@]3(C)CC[C@@]2(NC(=O)Cn2ccnc2)CC1=O	IIIB		RT activity	30% human serum	<0.199 µM
CC(C)C1=C2[C@H]3CC[C@@H]4[C@@]5(C)CC[C@H](OC(=O)[C@H]6C[C@@H](C(=O)O)C6(C)C)C(C)(C)[C@@H]5CC[C@@]4(C)[C@]3(C)CC[C@@]2(CCNCC(C)(C)NC(=O)c2ncccn2)CC1=O	92HT599		p24 / ELISA		<1 µM
CC(C)C1=C2C3CCC4[C@@]5(C)CC[C@H](OC(=O)CC(C)(C)C(=O)O)C(C)(C)C5CC[C@@]4(C)[C@]3(C)CC[C@@]2(NC(=O)NCc2cncnc2)CC1=O	IIIB		RT activity	30% human serum	<0.199 µM
CC1(C)CC(NC(=O)C(=O)Nc2ccc(Br)cc2)CC(C)(C)N1	MN		p24		15.93 µM
CC(C)C1=C2[C@H]3CC[C@@H]4[C@@]5(C)CC[C@H](OC(=O)[C@H]6C[C@@H](C(=O)O)C6(C)C)C(C)(C)[C@@H]5CC[C@@]4(C)[C@]3(C)CC[C@@]2([C@@H](O)CNCc2cccnc2)CC1=O	92HT599		p24 / ELISA		<1 µM
CC(C)C1=C2C3CCC4[C@@]5(C)CC[C@H](OC(=O)CC(C)(C)C(=O)O)C(C)(C)C5CC[C@@]4(C)[C@]3(C)CC[C@@]2(NC(=O)OCC2CCCCC2)CC1=O	IIIB		RT activity	30% human serum	<0.199 µM
CC(C)C1=C2[C@H]3CC[C@@H]4[C@@]5(C)CC[C@H](OC(=O)[C@H]6C[C@@H](C(=O)O)C6(C)C)C(C)(C)[C@@H]5CC[C@@]4(C)[C@]3(C)CC[C@@]2([C@@H](O)CNC(=O)C2(N)CC2)CC1=O	92HT599		p24 / ELISA		<1 µM
COc1ccc(C[C@H](C[C@H](O)[C@H](Cc2ccccc2)NC(=O)OC(C)(C)C)C(=O)N[C@H](C(=O)N[C@@H](Cc2ccccc2)C(=O)N2CCOCC2)C(C)C)cc1OC	MN		RT activity		<0.1 µM
O=C(O)C(O)c1ccccc1	IIIS		syncytia		0.3 µg/mL
CC(C)[C@H](NC(=O)[C@H](Cc1ccccc1)C[C@H](O)[C@H](Cc1ccccc1)NC(=O)OC(C)(C)C)C(=O)NCCN(C)C	MN		RT activity		<0.3 µM
COc1ccnc2[nH]cc(C(=O)C(=O)N3CCN(C(=O)c4ccccc4)C[C@H]3C)c12	LAI(GP120-V68A M434I) Recombinant	GP120-V68A M434I	RT activity		0.309 µM
CC(C)C1=C2[C@H]3CC[C@@H]4[C@@]5(C)CC[C@H](OC(=O)CC(C)(C)C(=O)O)C(C)(C)[C@@H]5CC[C@@]4(C)[C@]3(C)CC[C@@]2(NC(=O)c2ccc(F)cc2)CC1=O	IIIB		RT activity	30% human serum	<0.199 µM
CC(C)C1=C2[C@H]3CC[C@@H]4[C@@]5(C)CC[C@H](OC(=O)[C@H]6C[C@@H](C(=O)O)C6(C)C)C(C)(C)[C@@H]5CC[C@@]4(C)[C@]3(C)CC[C@@]2([C@@H](O)CNC(=O)C(C)(C)NC(=O)c2ccc3nc[nH]c3c2)CC1=O	92HT599		p24 / ELISA		<1 µM
Cc1nnc(C(=O)N[C@@]23CC[C@]4(C)C(CCC5[C@@]6(C)CC[C@H](OC(=O)[C@H]7CCC[C@@H](C(=O)O)C7)C(C)(C)C6CC[C@]54C)C2=C(C(C)C)C(=O)C3)o1	IIIB		RT activity	30% human serum	0.2–0.999 µM
COc1ccc(C[C@H](C[C@H](O)[C@H](Cc2ccccc2)NC(=O)OC(C)(C)C)C(=O)N[C@H](C(=O)N[C@@H](Cc2ccccc2)C(=O)N2CCOCC2)C(C)C)c(OC)c1	MN		RT activity		<0.03 µM
CC(C)C1=C2[C@H]3CC[C@@H]4[C@@]5(C)CC[C@H](OC(=O)CC(C)(C)C(=O)O)C(C)(C)[C@@H]5CC[C@@]4(C)[C@]3(C)CC[C@@]2(NC(=O)CN(C)C)CC1=O	IIIB		RT activity	30% human serum	<0.199 µM
COc1ncc(OC)c2c(C(=O)C(=O)N3CCN(C(=O)c4ccccc4)CC3)c[nH]c12	LAI		RT activity		0.0041 µM

Repeating the first 2 entries:

| structure | strain or isolate | changes | read by | conditions | result |
|---|---|---|---|---|---|
| CC(C)C1=C2[C@H]3CC[C@@H]4[C@@]5(C)CC[C@H](OC(=O)[C@H]6C[C@@H](C(=O)O)C6(C)C)C(C)(C)[C@@H]5CC[C@@]4(C)[C@]3(C)CC[C@@]2(CCNC(=O)c2ccc(OCCN3CCOCC3)cc2)CC1=O | 92HT599 |  | p24 / ELISA |  | <1 µM |
| CC(C)C1=C2C3CCC4[C@@]5(C)CC[C@H](OC(=O)CC(C)(C)C(=O)O)C(C)(C)C5CC[C@@]4(C)[C@]3(C)CC[C@@]2(NC(=O)NC2CC2)CC1=O | IIIB |  | RT activity | 30% human serum | <0.199 µM |